This is an account of results in publication PMC8532962 (Antibiotics, 2021).

This assay concerns Histoplasma capsulatum G217B. The following applies: 96 h.

A value given as a limit tells only on which side of the number the result lay.

Consider `CC[C@H](C)[C@H](NC(=O)[C@H](CC(=O)O)NC(=O)[C@@H](N)Cc1ccccc1)C(=O)N[C@@H](CC[S+](C)[O-])C(=O)NCC(=O)N[C@@H](CC(C)C)C(=O)N[C@H](C(=O)N[C@@H](CCCCN)C(=O)N[C@@H](CCCCN)C(=O)N[C@H](C(=O)N[C@@H](C)C(N)=O)C(C)C)[C@@H](C)CC` (some centres unmarked) [EMP-ER-C3], for which the “MIC Hc” value is given as above 256 µg/mL.

On to `CC[C@H](C)[C@H](NC(=O)[C@H](CC(=O)O)NC(=O)[C@@H](N)Cc1ccccc1)C(=O)N[C@@H](CC[S+](C)[O-])C(=O)NCC(=O)N[C@@H](CC(C)C)C(=O)N[C@H](C(=O)N[C@@H](CCCCN)C(=O)N[C@@H](CCCCN)C(=O)N[C@H](C(=O)N[C@@H](C)C(=O)NCC(=O)N[C@@H](C)C(=O)N[C@@H](CC(C)C)C(N)=O)C(C)C)[C@@H](C)CC` (some centres unmarked) [EMP-ER-OR], for which the “MIC Hc” value is recorded as above 256 µg/mL.
